Data taken from US6407221 (CELL GENESYS, dated 2002).

B1: CD3 gamma (receptor, human, UniProt P09693 23-182, looked up)
chain: QSIKGNHLVKVYDYQEDGSVLLTCDAEAKNITWFKDGKMIGFLTEDKKKWNLGSNAKDPRGMYQCKGSQNKSKPLQVYYRMCQNCIELNAATISGFLFAEIVSIFVLAVGVYFIAGQDGVRQSRASDKQTLLPNDQLYQPLKDREDDQYSHLQGNQLRRN
notes: whole, on cells; also called CD3 γ
B2: CD3 epsilon (receptor, human, UniProt P07766 23-207, looked up)
chain: DGNEEMGGITQTPYKVSISGTTVILTCPQYPGSEILWQHNDKNIGGDEDDKNIGSDEDHLSLKEFSELEQSGYYVCYPRGSKPEDANFYLYLRARVCENCMEMDVMSVATIVIVDICITGGLLLLVYYWSKNRKAKAKPVTRGAGAGGRQRGQNKERPPPVPNPDYEPIRKGQRDLYSGLNQRRI
notes: whole, on cells; also called CD3 ε; CD3 ε subunit of the TCR
B3: CD3 delta (receptor, human, UniProt P04234 22-171, looked up)
chain: FKIPIEELEDRVFVNCNTSITWVEGTVGTLLSDITRLDLGKRILDPRGIYRCNGTDIYKDKESTVQVHYRMCQSCVELDPATVAGIIVTDVIATLLLALGVFCFAGHETGRLSGAADTQALLRNDQVYQPLRDRDDAQYSHLGGNWARNK
notes: whole, on cells; also called CD3 δ

Each binder was assayed against T1, CD8/zeta chimera (human) (assay: immunoprecipitation from surface-iodinated digitonin lysates; TCR down modulation with C305).
T1 construct: range […];range […]; CD8/? chimeric receptor

Binding result, no binding:
B1, B2, B3
